Anti-infective test results gathered from many reports (values: NIAID ChemDB through PubChem).

Common to all: cytotoxicity tests; endpoint: CC50

Neighbouring rows are from separate reports. Blank or dashed fields: not listed here. CCn is the concentration with n% toxicity to the cells.

compound | cell line | read by | conditions | result
Nc1nc2c(ncn2[C@H]2CO[C@@H](CO)O2)c(=O)[nH]1 | HT-1080 | - | - | >500 µM
Cc1cn([C@H]2C[C@H](N=[N+]=[N-])[C@@H](CO)O2)c(=O)[nH]c1=O | BFU-E | - | - | 1.6 µM
NC(=NC1CCC1)c1ccc(-c2ccc(-c3ccc(C(N)=NC4CCC4)cc3)o2)cc1 | A2780 ovarian carcinoma | - | - | 11 µM
O=c1[nH]c(=O)n([C@@H]2O[C@H](CO)[C@@H](O)[C@@H]2F)cc1C12B3B4B5B6B(B3B1B42)B1B5C61 | BFU-E | - | - | >100 µM
CCOC(=O)c1ccc2nc(C3C(c4ccccc4)C(=O)C3c3ccc(OC)cc3)[nH]c2c1 | Vero cell | MTT | - | >62.5 µg/mL
CCCCCC(=O)O[C@H]1C[C@H](n2cc(/C=C/Br)c(=O)[nH]c2=O)O[C@@H]1COP1(=O)OCc2cccc(C)c2O1 | P3HR-1 | - | - | >326 µM
CCCCCCCCCN1C[C@H](O)[C@@H](O)[C@H](O)[C@H]1CO | MDBK | XTT | - | 120 µM
CCc1nc2sccn2c1C(=O)c1ccco1 | U1 | - | - | >100 µM
NC(=O)C(c1ccccc1)(c1ccccc1)[C@H]1CCCN(CCc2ccc3c(c2)CCO3)C1 | PM1 | - | - | 47 µM
O[C@H]1[C@H](O)[C@@H](O)CN2CC[C@H](O)[C@H]12 | MDBK | - | - | >1000 µM
Cc1cccc2c1OP(=O)(OC[C@H]1O[C@@H](n3cc(/C=C/Br)c(=O)[nH]c3=O)C[C@@H]1OC(=O)C(C)C)OC2 | P3HR-1 | - | - | 104 µM
CN1[C@@H]2CC[C@H]1CC(OC(c1ccccc1)c1ccccc1)C2 | Huh 7.5.1 clone 2 | MTT | - | 26.25 µM
CCOC(=O)c1ccc2c(c1)nc(-c1ccc(N(C)C)cc1)n2CCN1CCCOC1 | Vero cell | MTT | - | >62.5 µg/mL
CCc1nc2ccccn2c1C(=O)c1cccs1 | U1 | - | - | >100 µM
COc1ccc(N2C(=O)C(O)=C(C(=O)/C=C/c3ccccc3)C2c2cccc([N+](=O)[O-])c2)cc1 | GHOST R5 | - | - | >100 µM
CC(C)(C)S(=O)(=O)C[C@@H](Cc1cccc2ccccc12)C(=O)N[C@H](C(=O)N[C@@H](Cc1ccccc1)[C@@H](O)[C@H](O)[C@H](Cc1ccccc1)NC(=O)[C@@H](NC(=O)[C@H](Cc1cccc2ccccc12)CS(=O)(=O)C(C)(C)C)C1CCCCC1)C1CCCCC1 | PBLC | - | - | >0.06 µM
O=c1[nH]c(=O)n([C@H]2C[C@H](O)[C@@H](CO)O2)cc1/C=C/Br | OST TK-/HSV-1 TK+ | - | - | 0.142 µM
O=C(O)/C=C/c1ccc(O)cc1 | RC-37 | neutral red | - | ≥1000 µg/mL
Cc1ccc(-c2nn(-c3ccccc3)cc2/C=C/c2nc3sccn3c(=O)c2-c2ccc(C#N)cc2)cc1 | Monocyte-derived macrophages | MTT | - | 367 µg/mL
CCC(=O)O[C@H]1C[C@H](n2cc(/C=C/Br)c(=O)[nH]c2=O)O[C@@H]1COP1(=O)OCc2cccc(C)c2O1 | P3HR-1 | - | - | 282 µM
CC(C)(C)S(=O)(=O)C[C@@H](Cc1cccc2ccccc12)C(=O)N[C@@H](Cc1cnc[nH]1)C(=O)N[C@@H](Cc1ccccc1)[C@@H](O)[C@H](O)[C@H](Cc1ccccc1)NC(=O)[C@H](Cc1cnc[nH]1)NC(=O)[C@H](Cc1cccc2ccccc12)CS(=O)(=O)C(C)(C)C | PBLC | - | - | >10 µM
CC[C@@H](CO)NCCN[C@@H](CC)CO | Vero cell | MTT | - | >62.5 µg/mL
O=C1Nc2ccc(Cl)cc2[C@@](C#CC2CC2)(C(F)(F)F)O1 | SupT1 | WST | - | >100 µM
O=C(/C=C/c1ccccc1)C1=C(O)C(=O)N(c2cccc(C(F)(F)F)c2)C1c1ccc([N+](=O)[O-])cc1 | GHOST R5 | - | - | >100 µM
Nc1ccn([C@@H]2CS[C@H](CO)O2)c(=O)n1 | HSF | - | - | 400 µM
CC(C)[C@H](NC(=O)N(C)Cc1ccccn1)C(=O)N[C@@H](Cc1ccccc1)[C@@H](O)[C@H](O)[C@H](Cc1ccccc1)NC(=O)[C@@H](NC(=O)N(C)Cc1ccccn1)C(C)C | PBLC | - | - | >0.958 µM
Cc1cn([C@H]2C[C@H](N=[N+]=[N-])[C@@H](CO)O2)c(=O)[nH]c1=O | HT-1080 | - | - | 5 µM
Nc1ccn(C[C@@H](CO)OCP(=O)(O)O)c(=O)n1 | OST TK- | - | - | 868 µM
Cc1ccccc1N1C(=O)C(O)=C(C(=O)/C=C/c2ccccc2)C1c1ccc(Br)cc1 | GHOST R5 | - | - | 50 µM
Cc1cn([C@H]2C[C@H](F)[C@@H](CO)O2)c(=O)[nH]c1=O | K562 | - | - | 45 µM
CO[C@H]1/C=C/O[C@@]2(C)Oc3c(C)c(O)c4c(O)c(c(/C=N/N5CCN(C)CC5)c(O)c4c3C2=O)NC(=O)/C(C)=C\C=C\[C@H](C)[C@H](O)[C@@H](C)[C@@H](O)[C@@H](C)[C@H](OC(C)=O)[C@@H]1C | Monocyte-derived macrophages | MTT | - | 400 µg/mL
C[C@@H]1[C@H](O)[C@@H](C)/C=C/C=C/CC/C=C/C=C/C=C/C=C/C(O[C@H]2O[C@H](C)[C@@H](O)[C@H](N)[C@@H]2O)CC2O[C@](O)(CC(O)C(O)CCC(O)CC(O)CC(O)CC(=O)O[C@H]1C)CC(O)C2C(=O)O | Mouse neuroblastoma CCL131 | MTT / tetrazolium | - | 15.62 µg/mL
Cc1cc(C)cc(S(=O)(=O)c2c(C(N)=O)[nH]c3ccc(Cl)cc23)c1 | Macrophage | - | - | 20 µM
CCOC(=O)c1ccc2c(c1)nc(-c1ccc(OC)cc1)n2CCN1CCCC1=O | Vero cell | MTT | - | >62.5 µg/mL
CC[C@H](C)[C@@H](C(=O)O)n1sc2ccccc2c1=O | Macrophage | - | - | >100 µM
Nc1ncnc2c1ncn2CCOCP(=O)(O)O | HB611 | - | - | 48 µM
CCOC(=O)c1ccc2c(c1)nc(-c1cccc(-c3ccc(F)cc3)c1)n2CCN1CCCOC1 | Vero cell | MTT | - | >62.5 µg/mL
C/C(=N\OCc1ccc(F)cc1)c1c(C)cc(=O)n(O)c1O | HepDES19 | MTS | 7 d | 31.2 µM
CCCCCCCCCCCCCCCCCCOCCOP(=O)(O)OC[C@H]1O[C@@H](n2cnc(C(N)=O)n2)[C@H](O)[C@@H]1O | Ava5 | neutral red | - | 182 µM
Cc1cccc(-c2nn(-c3ccccc3)cc2/C=C/c2nc3sccn3c(=O)c2-c2ccc(C#N)cc2)c1 | Monocyte-derived macrophages | MTT | - | 421 µg/mL
Cn1c2ccccc2c2c3c(c4c5ccccc5n(CCC#N)c4c21)CNC3=O | CD4+ T CELLS | - | - | 37 µM
Nc1nc(N)c2ncn([C@H]3CO[C@@H](CO)O3)c2n1 | HSF | - | - | >500 µM
O=C(/C=C/c1ccccc1)C1=C(O)C(=O)N(c2cccc(C(=O)O)c2)C1c1ccc([N+](=O)[O-])cc1 | GHOST R5 | - | - | >100 µM